Pooled drug test results. Numbers come from NIAID ChemDB, via PubChem.

All rows: growth or infection tests; agent: Herpes simplex virus 1; method: cytopathic effect; endpoint: EC50

Blank or dashed fields: not listed here.

{"structure": "C=CCOc1nc(N)nc2c1ncn2/C=C1/C[C@@H]1CO", "cell line": "HFF", "result": ">366 µM"}
{"structure": "OC[C@H]1O[C@H](c2cc(Cl)c(F)cc2F)C[C@@H]1O", "cell line": "E6SM", "strain": "KOS/ACV-R", "result": ">400 µg/mL"}
{"structure": "CC(C1=NNC(=Nc2ccc(Cl)cc2)SC1)N1C(=O)c2ccccc2C1=O", "cell line": "VERO", "strain": "VR733", "result": ">37.03 µg/mL"}
{"structure": "CCCC#Cc1nc2c(N)ncnc2n1[C@H]1C[C@H](O)[C@@H](CO)O1", "cell line": "ESM", "strain": "KOS", "result": "100 µg/mL"}
{"structure": "COc1ccc(Cc2nn(COCCO)c(=O)[nH]c2=O)cc1", "cell line": "HFF", "result": ">100 µM"}
{"structure": "CC(=O)/C=C/[C@]12CC[C@H](OC(C)=O)CC1=CCC1C2CC[C@@]2(C)C1CC[C@@H]2C(C)OC(C)=O", "cell line": "BHK-21", "strain": "KOS", "result": "4.77 µM"}
{"structure": "Nc1nc(NC2CC2)c2ncn(/C=C3/C[C@@H]3CO)c2n1", "cell line": "HFF", "result": "63.5 µM"}
{"structure": "CC(=O)OCCOCn1cnc2c(Cl)nc(N)nc21", "cell line": "PRK", "result": "20 µg/mL"}
{"structure": "C/C=C\\c1nc2c(N)ncnc2n1[C@H]1C[C@H](O)[C@@H](CO)O1", "cell line": "ESM", "strain": "G", "result": ">100 µg/mL"}
{"structure": "Cc1ccc(Cc2nn(COCCO)c(=O)[nH]c2=O)cc1", "cell line": "HFF", "result": ">100 µM"}
{"structure": "OC[C@H]1O[C@@H](c2cc(C(F)(F)F)c(F)cc2F)C[C@@H]1O", "cell line": "E6SM", "strain": "KOS/ACV-R", "result": ">400 µg/mL"}
{"structure": "CC(=O)OC(C)[C@H]1CCC2C3CC=C4C[C@@H](OC(C)=O)CC[C@]4(C=O)C3CC[C@@]21C", "cell line": "BHK-21", "strain": "KOS", "result": "3.94 µM"}
{"structure": "O=c1[nH]c(=O)n(COCCO)cc1Br", "cell line": "PRK", "result": ">400 µg/mL"}
{"structure": "Cc1ccc(Cc2nn(COC(CO)CO)c(=O)[nH]c2=O)cc1", "cell line": "HFF", "result": ">100 µM"}
{"structure": "Nc1ncnc2c1ncn2C1CC(CO)[C@@H](O)[C@H]1O", "cell line": "PRK", "result": "4 µg/mL"}
{"structure": "CO[C@H]1[C@H](OC)[C@@H](CO)O[C@H]1n1cnc2c(N)ncnc21", "cell line": "PRK", "result": ">100 µg/mL"}
{"structure": "CC(C1=NN=C(N(C)C)SC1)N1C(=O)c2ccccc2C1=O", "cell line": "VERO", "strain": "VR733", "result": ">111 µg/mL"}
{"structure": "Cc1cc([C@H]2C[C@H](O)[C@@H](CO)O2)c(Cl)cc1F", "cell line": "E6SM", "strain": "McIntyre", "result": ">400 µg/mL"}
{"structure": "O=C(O)Cc1cn([C@H]2C[C@H](O)[C@@H](CO)O2)c(=O)[nH]c1=O", "cell line": "PRK", "strain": "KOS", "result": "600 µM"}
{"structure": "C=CCNc1nc(N)nc2c1ncn2/C=C1/C[C@@H]1CO", "cell line": "HFF", "result": "227 µM"}
{"structure": "O=c1[nH]c(=O)n(COC(CO)CO)nc1Cc1ccccc1", "cell line": "HFF", "result": ">100 µM"}
{"structure": "CC(=O)OC(C)[C@H]1CCC2C3CC4CC[C@@]5(CC[C@H](OC(C)=O)C[C@]45Cl)C3CC[C@@]21C", "cell line": "BHK-21", "strain": "KOS", "result": "12.9 µM"}
{"structure": "CCCCCOc1nc(N)nc2c1ncn2/C=C1/C[C@@H]1CO", "cell line": "HFF", "result": ">329.6 µM"}
{"structure": "COc1cc(F)c([C@H]2C[C@H](O)[C@@H](CO)O2)cc1[N+](=O)[O-]", "cell line": "E6SM", "strain": "KOS/ACV-R", "result": ">400 µg/mL"}
{"structure": "Nc1ncnc2c1ncn2[C@H]1[C@H](O)[C@H](F)[C@@H](CO)[C@@H]1O", "cell line": "HEP-2", "strain": "F", "result": "90 µM"}
{"structure": "O=c1[nH]c(=O)n(COCCO)cc1/C=C/Br", "cell line": "PRK", "result": ">400 µg/mL"}
{"structure": "C=CCN=C1NN=C(C(C)N2C(=O)c3ccccc3C2=O)CS1", "cell line": "VERO", "strain": "VR733", "result": "77.04 µg/mL"}
{"structure": "CC(=O)OCCOCn1cnc2c(Cl)ncnc21", "cell line": "PRK", "result": "70 µg/mL"}
{"structure": "COc1ccc(Cc2nn(COC(CO)CO)c(=O)[nH]c2=O)cc1", "cell line": "HFF", "result": ">100 µM"}
{"structure": "Nc1ncnc2c1ncn2[C@@H]1C[C@H](CO)[C@@H](O)[C@H]1O", "cell line": "PRK", "result": "2 µg/mL"}
{"structure": "CO[C@@H]1[C@H](O)[C@@H](CO)O[C@H]1n1cnc2c(N)ncnc21", "cell line": "PRK", "result": ">100 µg/mL"}
{"structure": "Nc1nc2c(ncn2OCC2COP(=O)(O)CO2)c(=O)[nH]1", "cell line": "MRC-5", "strain": "SC16", "result": "32 µM"}
{"structure": "C#Cc1nc2c(N)ncnc2n1[C@H]1C[C@H](O)[C@@H](CO)O1", "cell line": "ESM", "strain": "G", "result": ">4 µg/mL"}
{"structure": "Nc1nc2c(nc(Cl)n2COCCO)c(=O)[nH]1", "cell line": "PRK", "result": "70 µg/mL"}
{"structure": "CCCOc1nc(N)nc2c1ncn2/C=C1/C[C@@H]1CO", "cell line": "HFF", "result": "42.5 µM"}
{"structure": "Nc1nccc2c1ncn2[C@@H]1C[C@H](CO)[C@@H](O)[C@H]1O", "strain": "TK-/B2006", "result": "40 µg/mL"}

The last 3 rows once more:

structure,cell line,strain,result
Nc1nc2c(nc(Cl)n2COCCO)c(=O)[nH]1,PRK,-,70 µg/mL
CCCOc1nc(N)nc2c1ncn2/C=C1/C[C@@H]1CO,HFF,-,42.5 µM
Nc1nccc2c1ncn2[C@@H]1C[C@H](CO)[C@@H](O)[C@H]1O,-,TK-/B2006,40 µg/mL

Neighbouring rows are from separate reports. ECn is the concentration giving n% inhibition of infection, replication or growth.